Pooled drug test results. Numbers come from NIAID ChemDB, via PubChem.

Shared fields: whole-cell or culture tests

Rows are shuffled and stem from different studies. Blank or dashed fields: not listed here. Percent inhibition refers to the dose given; in toxicity tests it is the harm to the cells. Two numbers with a dash give a range or band. ECn is the concentration giving n% inhibition of infection, replication or growth. A number after MIC or MFC names an inhibition level or a share of isolates.

smiles	tested at	agent	strain	read by	cell line	measure	result
C=CCc1ccc(OC)c(OC)c1		Candida glabrata	3147	turbidity		MIC90	340 µg/mL
O=C(NCc1ccccc1-c1ncco1)c1c2n(c(=O)n1-c1ccc(OC3CC3)cc1)CCN(C(=O)c1ccc(Br)c(Cl)c1)C2		Hepatitis B virus		PCR	HepG2.117	EC50	<0.1 µM
C[C@H]1Cc2c(n3ncc(CC4CCC4)c3n(-c3ccc(-c4nncn4C)cc3)c2=O)CN1C(=O)c1ccc(Cl)c(C(F)(F)F)c1		Hepatitis B virus		luminescence	HepG2.117	EC50	0.5–5 µM
Nc1ccccc1S(=O)(=O)O	50 µg/mL	Rhinovirus		cytopathic effect	Human embryonic lung cells	inhibition	10%
O=C(NCc1ccccc1-n1cc(F)cn1)c1c2n(c(=O)n1-c1ccc(OC3CC3)cc1)CCN(C(=O)c1ccc(Br)c(Cl)c1)C2		Hepatitis B virus		PCR	HepG2.117	EC50	<0.1 µM
O=C(Nc1ccc2c(O)c(N=Nc3ccc(N=Nc4ccc(S(=O)(=O)O)cc4)cc3)c(S(=O)(=O)O)cc2c1)c1ccccc1	10 µg/mL	Herpes simplex virus		cytopathic effect	Human conjunctiva cells	inhibition	0%
CNC(=O)c1ccc(-n2c(=O)c3c(n4ncc(Cc5ccccc5)c24)CN(C(=O)c2ccc(Br)c(C(F)(F)F)c2)[C@H](C2CC2)C3)cc1		Hepatitis B virus		luminescence	HepG2.117	EC50	≤0.05 µM
CC1(C)CN(c2ccc(-n3c(C(=O)NCc4ccccc4)c4n(c3=O)CCN(C(=O)c3ccc(Br)c(Cl)c3)C4)cc2)CCO1		Hepatitis B virus		PCR	HepG2.117	EC50	0.1–0.5 µM
O=C(O)c1ccc(S(=O)(=O)[O-])cc1C(=O)O	5 µg/mL	Adenovirus	TYPE 3	cytopathic effect	Human embryonic lung cells	inhibition	0%
Oc1cccc(C=Nc2ccccc2O)c1		Cryptococcus neoformans	ATCC 24067	broth dilution		MIC	2.8 µg/mL
CO[C@H]1/C=C/O[C@@]2(C)Oc3c(C)c(O)c4c(O)c(c(/C=N/N5CCN(C6CCCC6)CC5)c(O)c4c3C2=O)NC(=O)/C(C)=C\C=C\[C@H](C)[C@H](O)[C@@H](C)[C@@H](O)[C@@H](C)[C@H](OC(C)=O)[C@@H]1C		Mycobacterium avium intracellulare	420			MIC	1 µg/mL
COc1ccc(CN2C[C@H](O)Cn3c(c4n(c3=O)CCN(C(=O)c3ccc(Br)c(Cl)c3)C4)C2=O)cc1		Hepatitis B virus		PCR		EC50	0.1–5 µM
CCOC(=O)c1c(C)nc(NCCCCNc2ccnc3cc(Cl)ccc23)nc1-c1ccccc1		Cryptococcus gattii	L24/01			MIC99	8 µg/mL
O=C1C(c2[nH]c3ccc(S(=O)(=O)O)cc3c2O)=Nc2ccc(S(=O)(=O)O)cc21	10 µg/mL	Rhinovirus		cytopathic effect	Human embryonic lung cells	inhibition	0%
COc1ccc([C@@H](C)NC(=O)c2c3n(c(=O)n2-c2ccc(-n4cccn4)cc2)CCN(C(=O)c2ccc(Br)c(Cl)c2)C3)c(F)c1		Hepatitis B virus		PCR	HepG2.117	EC50	<0.1 µM
CC(N)C12CC3CC(CC(C3)C1)C2		Influenza A virus	Influenza A H3N2 isolate 86	ELISA	MDCK	EC50	13.2 µg/mL
CC(=O)N[C@H]1[C@H]([C@H](O)[C@H](O)CO)OC(C(=O)O)=C[C@@H]1N=C(N)N		Influenza A virus	Influenza A/Victoria/3/75 (H3N2)		MDCK	EC50	0.41 µM
CCC(C)CC(C)CCCCCCCCC(=O)N[C@H]1C[C@@H](O)[C@H](NCCN)NC(=O)[C@@H]2[C@@H](O)CCN2C(=O)[C@H]([C@H](O)CCN)NC(=O)[C@H]([C@H](O)[C@@H](O)c2ccc(O)cc2)NC(=O)[C@@H]2C[C@@H](O)CN2C(=O)[C@H]([C@@H](C)O)NC1=O		Cryptococcus gattii	CBS 10090	broth dilution		MIC	32 µg/mL
CCO/N=C/c1ccc(OCCC2CCN(c3ccc(Cl)nn3)CC2)cc1		Rhinovirus	6669-CV39 (ICAM-1 receptor group 61)	neutral red	KB	EC50	0.121 µM
CC(C)Cc1cnn2c3c(c(=O)n(-c4ccc5c(c4)nnn5C)c12)C[C@H](C)N(C(=O)c1ccc(Br)c(C(F)(F)F)c1)C3		Hepatitis B virus		luminescence	HepG2.117	EC50	0.05–0.5 µM
O=C(O)c1cc(S(=O)(=O)[O-])ccc1O	50 µg/mL	Adenovirus	TYPE 3	cytopathic effect	Human embryonic lung cells	inhibition	30%
O=C(NCc1ccccc1-c1ncccn1)c1c2n(c(=O)n1-c1ccc(OC3CC3)cc1)CCN(C(=O)c1ccc(Br)c(Cl)c1)C2		Hepatitis B virus		PCR	HepG2.117	EC50	<0.1 µM
Cc1cc(-c2ccc(N=Nc3c(N)c(S(=O)(=O)O)cc4cc(S(=O)(=O)O)ccc34)c(C)c2)ccc1N=Nc1c(N)ccc2cc(S(=O)(=O)O)ccc12	50 µg/mL	Herpes simplex virus		cytopathic effect	Human conjunctiva cells	inhibition	100%
CCOC(=O)c1c(C)nc(NCCCNc2ccnc3cc(Cl)ccc23)nc1-c1ccccc1		Cryptococcus neoformans	ATCC 28957			MIC99	1.4 µg/mL
CN[C@H]1CC[C@@H](c2ccc(Cl)c(Cl)c2)c2ccccc21		Cryptococcus neoformans	92BC1-86	broth dilution		MFC	8 µg/mL
Oc1ccccc1C=Nc1ccccc1O		Cryptococcus neoformans	ATCC 28957			MIC99	4 µg/mL
COc1ccc(-n2c(C(=O)N[C@@H](CO)c3ccccc3)c3n(c2=O)CCN(C(=O)c2ccc(Br)c(Cl)c2)C3)cc1		Hepatitis B virus		PCR	HepG2.117	EC50	0.5–5 µM
Cc1nc(-c2ccc(-n3c(=O)c4c(n5ncc(Cc6ccccc6)c35)CN(C(=O)c3ccc(Cl)c(C(F)(F)F)c3)[C@@H](C)C4)cc2)n[nH]1		Hepatitis B virus		luminescence	HepG2.117	EC50	0.05–0.5 µM
O=S(=O)(O)c1ccc2cc(O)c(S(=O)(=O)O)cc2c1	5 µg/mL	Rhinovirus		cytopathic effect	Human amnion AV3 cells	inhibition	0%

A second listing of 2 rows from above:

smiles | tested at | agent | strain | read by | cell line | measure | result
Cc1cc(-c2ccc(N=Nc3c(N)c(S(=O)(=O)O)cc4cc(S(=O)(=O)O)ccc34)c(C)c2)ccc1N=Nc1c(N)ccc2cc(S(=O)(=O)O)ccc12 | 50 µg/mL | Herpes simplex virus |  | cytopathic effect | Human conjunctiva cells | inhibition | 100%
CC(C)Cc1cnn2c3c(c(=O)n(-c4ccc5c(c4)nnn5C)c12)C[C@H](C)N(C(=O)c1ccc(Br)c(C(F)(F)F)c1)C3 |  | Hepatitis B virus |  | luminescence | HepG2.117 | EC50 | 0.05–0.5 µM